Target: 3BC315 IgG
Experiment: ELISA
Conditions: parent: est. 0.50; read off a plot

“D7324-tagged BG505 SOSIP.664 trimer produced in 293T cells W623A” gave a response of 0.1 OD450.

Reference: paper PMC4586043, “Antibodies to a conformational epitope on gp41 neutralize HIV-1 by destabilizing the Env spike” (2015)
